According to paper PMC5887915:

Target: HLA-A*0201 (alpha-chain refolded with beta2m)
Experiment: circular dichroism thermal melting

Question: Which Tm (melting temperature of the peptide-HLA complex) does the source give for “LLW peptide ([…]), Yellow Fever virus Non-Structural protein 4b 214-222” here?
Answer: 66.5 °C
